Pooled drug test results. Numbers come from NIAID ChemDB, via PubChem.

Shared fields: tests on isolated targets; organism: HIV-1; target: Protease; endpoint: IC50

Lines come from different laboratories, so protocols vary.

smiles | read by | conditions | value
CC(C)C[C@H](NC(=O)[C@@H](NC(=O)CCCCCCCCCCCCCCC(=O)N[C@@H](CC(N)=O)C(=O)N[C@@H](CCc1ccccc1)C(=O)O)C(C)O)C(=O)N[C@H](C(N)=O)C1CCCCC1 | HPLC |  | 0.53 µM
CCC(Cc1cccc(NS(=O)(=O)c2ccc([N+](=O)[O-])cc2)c1)c1cc(O)c(C(c2ccccc2)C2CC2)c(=O)o1 | fluorescence |  | 2.22 µM
CCCC[C@@H](CN[C@@H](CCC(N)=O)C(=O)N[C@@H](CCCN=C(N)N)C(N)=O)NC(=O)[C@H](CCCC)NC(=O)C(NC(=O)C(NC(C)=O)[C@@H](C)O)[C@@H](C)CC | HPLC |  | <2.17 µM
COCCCNC(=O)[C@@H](NC(=O)[C@H](Cc1ccc(OC)c(OC)c1OC)C[C@H](O)[C@H](Cc1ccccc1)NC(=O)OC(C)(C)C)C(C)C | fluorescence |  | 0.008 µM
CC(C)C[C@H](N)C(=O)N[C@H](C(=O)N[C@@H](Cc1ccccc1)[C@H](O)CNC[C@@H](O)[C@H](Cc1ccccc1)NC(=O)OC(C)(C)C)C(C)C | HPLC | pH 5.5 | <10 µM
C[C@@H](C(=O)NC(C)(C)C)n1nnnc1[C@H](O)[C@H](Cc1ccccc1)NC(=O)[C@H](CC(N)=O)NC(=O)c1ccc2ccccc2n1 |  |  | 60 ± 10 µM
CCC(Cc1cccc(NS(=O)(=O)c2ccc(OC)cc2)c1)c1cc(O)c(C(c2ccccc2)C2CC2)c(=O)o1 | fluorescence |  | 2.9 µM
CCOCCCNC(=O)[C@@H](NC(=O)[C@H](Cc1ccc(OC)c(OC)c1OC)C[C@H](O)[C@H](Cc1ccccc1)NC(=O)OC(C)(C)C)C(C)C | fluorescence |  | 0.002 µM
CSCC[C@H](NC(=O)CCCCCCCCCCCCCCC(=O)N[C@@H](CCSC)C(=O)N[C@@H](CC(C)C)C(=O)N[C@@H](Cc1ccccc1)C(N)=O)C(=O)N[C@@H](Cc1ccccc1)C(=O)O | HPLC |  | 0.58 µM
CC(C)[C@@H](C(=O)N[C@@H](Cc1ccccc1)[C@H](O)C(=O)N1CSC[C@H]1C(=O)NC(C)(C)C)N(C)C(=O)[C@H](Cc1cccc2ccccc12)NC(=O)CCN1CCOCC1 | fluorescence |  | 0.0014–0.0033 µM
CC(C)(C)OC(=O)N[C@@H](Cc1ccccc1)[C@H](O)CNC[C@@H](O)[C@H](Cc1ccccc1)NC(=O)OC[C@@H](O)CO | HPLC | pH 5.5 | <10 µM
CC(O)[C@H](NC(=O)CCCCCCCCCCCCCCC(=O)N[C@@H](CC(N)=O)C(=O)N[C@@H](CCc1ccccc1)C(=O)O)C(=O)N[C@H](C(=O)N[C@@H](Cc1ccccc1)C(N)=O)C1CCCCC1 | HPLC |  | 0.65 µM
CCC(Cc1cccc(NS(=O)(=O)c2ccc(C#N)cn2)c1)c1cc(O)c(C(c2ccccc2)C2CC2)c(=O)o1 | fluorescence |  | 0.045 µM
CC(C)C[C@H](NC(=O)[C@@H](NC(=O)CCCCCCCCCCCCCCC(=O)N[C@@H](CC(N)=O)C(=O)N[C@@H](CC1CCCCC1)C(=O)O)C(C)O)C(=O)N[C@H](C(N)=O)C1CCCCC1 | HPLC |  | 0.55 µM
CC(C)[C@H](NC(=O)[C@H](Cc1cccc2ccccc12)NC(=O)CN1CCOCC1)C(=O)N[C@@H](Cc1ccccc1)[C@H](O)C(=O)N1CSC[C@H]1C(=O)NC(C)(C)C | fluorescence |  | 0.001 µM
CCC(Cc1cccc(NS(=O)(=O)c2ccc(N)cn2)c1)c1cc(O)c(C(c2ccccc2)C2CC2)c(=O)o1 | fluorescence |  | 0.16 µM
COc1ccc(C[C@H](C[C@H](O)[C@H](Cc2ccccc2)NC(=O)OC(C)(C)C)C(=O)N[C@H](C(=O)N[C@@H](Cc2ccccc2)C(=O)N2CCOCC2)C(C)C)c(OC)c1OC | fluorescence |  | 0.016 µM
CC(C)C[C@H](NC(=O)[C@@H](NC(=O)CCCCCCCCCCCCCCC(=O)N[C@@H](CC(N)=O)C(=O)N[C@@H](CC1CCCCC1)C(=O)O)C(C)O)C(=O)N[C@@H](Cc1ccccc1)C(N)=O | HPLC |  | 3.7 µM
CC(C)[C@H](NC(=O)OCc1ccccc1)C(=O)N(C)[C@@H](Cc1ccccc1)[C@H](O)CNC[C@@H](O)[C@H](Cc1ccccc1)NC(=O)OC(C)(C)C | HPLC | pH 5.5 | <10 µM
COCCNC(=O)[C@@H](NC(=O)[C@H](Cc1ccc(OC)c(OC)c1OC)C[C@H](O)[C@H](Cc1ccccc1)NC(=O)OC(C)(C)C)C(C)C | fluorescence |  | <0.0005 µM
CC(C)[C@@H](C(=O)N[C@@H](Cc1ccccc1)[C@H](O)C(=O)N1CSC[C@H]1C(=O)NC(C)(C)C)N(C)C(=O)[C@H](Cc1cccc2ccccc12)NC(=O)CN(C)C | fluorescence |  | 0.0013 µM
CC(C)[C@H](NC(=O)[C@H](Cc1ccc(O)cc1)C[C@H](O)[C@H](Cc1ccccc1)NC(=O)OC(C)(C)C)C(=O)N[C@@H](Cc1ccccc1)C(=O)N1CCOCC1 | fluorescence |  | 0.002 µM
C[C@H](C(=O)NC(C)(C)C)n1nnnc1C[C@H](Cc1ccccc1)NC(=O)[C@H](CC(N)=O)NC(=O)c1ccc2ccccc2n1 |  |  | 300 ± 10 µM
O=C1OCC(O)C(C2OC(=O)c3cc(O)c(O)c(O)c3-c3c(O)c(O)c(O)c4c3C(=O)OC2C4c2c(O)cc(O)c3c2OC(c2ccc(O)c(O)c2)C(O)C3)OC(=O)c2cc(O)c(O)c(O)c2-c2c1cc(O)c(O)c2O | HPLC |  | 77 µM
COCCNC(=O)[C@@H](NC(=O)[C@H](Cc1ccc(OC)c(OC)c1)C[C@H](O)[C@H](Cc1ccccc1)NC(=O)OC(C)(C)C)C(C)C | fluorescence |  | <0.0005 µM

Again, the opening 3 rows:

smiles,read by,conditions,value
CC(C)C[C@H](NC(=O)[C@@H](NC(=O)CCCCCCCCCCCCCCC(=O)N[C@@H](CC(N)=O)C(=O)N[C@@H](CCc1ccccc1)C(=O)O)C(C)O)C(=O)N[C@H](C(N)=O)C1CCCCC1,HPLC,,0.53 µM
CCC(Cc1cccc(NS(=O)(=O)c2ccc([N+](=O)[O-])cc2)c1)c1cc(O)c(C(c2ccccc2)C2CC2)c(=O)o1,fluorescence,,2.22 µM
CCCC[C@@H](CN[C@@H](CCC(N)=O)C(=O)N[C@@H](CCCN=C(N)N)C(N)=O)NC(=O)[C@H](CCCC)NC(=O)C(NC(=O)C(NC(C)=O)[C@@H](C)O)[C@@H](C)CC,HPLC,,<2.17 µM

ICn is the concentration giving n% inhibition. a–b is a range or a potency band. An empty or dashed field is not shown.